Molecular target: the molecule itself
Test: oligomerization assay (Western blot of high molecular-weight complexes); LLO or its mutants pre-incubated with or without curcumin at 37°C, oligomerization induced in vitro; protocol as in ref. 11; oligomers detected by Western blot with specific antibodies

B1: listeriolysin O (LLO), wild type (natural protein)
chain: not shown
notes: ATCC19115 and EGD were used in the study; Cloned into pET-21a between NdeI and XhoI; also called WT-LLO
B1: binds.

— publication PMC5434164, “Curcumin Promotes the Clearance of Listeria monocytogenes both In Vitro and In Vivo by Reducing Listeriolysin O Oligomers” (Frontiers in Immunology, 2017)
